The labels stand for the following.
B1: BD-767 (protein)
chain 1: QVQLVQSGAELKKPGASVKVSCKASGYTFTDYFIHWVRQAPGQGLEWMGWINPNSGGTNYAQKFQDWVTMTRDRSINTVYMELSRLKSDDTAVYYCARDQCGIGVAASGCVNRFDPWGQGTLVTVSS
chain 2: QSALTQPPSASGSPGQSVTISCTGTSSDPGGYKYVSWYQQGPSKAPKLIIYEVSKRPSGVPDRFSGSKSGNTASLTVAGLQAEDEADYYCSSYAGSNNVVFGGGTKLTVL
B2: BD-790 (protein)
chain 1: QVQLVQSGAEVRKPGASVKVSCKASGYIFTGYYIHWVRQAPGQGLEWMGRLNPISGGTTYAQRFQGRVTMTRDTSITTAYMDVTRLRSDDTVVYYCARGPFYYDSGSAGSFDYWGQGTLVTVSS
chain 2: DIVMTQTPLSLSVTPGQPASISCKSSQSLLHSDGKTYLYWYLQKPGQPPQLLIYEVSNRFSGVTDRFSGSGSGTDFTLKISRVEAEDVGVYYCMQSIQLPLTFGGGTKVEIK
B3: BD-778 (protein)
chain 1: EVQLVQSGAEVKKPGESLKISCKGSGYSFTRFWIGWVRQMPGRGLEWMGIIYPGDSDTRYSPSFQGQVTISADRSFSTAYLQWSSLKASDTAFYYCARHGDRLTTTTAQIDYWGQGTLVTVSS
chain 2: NFMLTQPHSVSESPGKTVTISCTRSSGSIASNYVQWYQQRPGSAPTTMIFEDNQGPSGVPDRFSGSIDSSSNSASLTISGLKTEDEAVYYCQSSDSSNVVFGGGTKLTVL
B4: BD55-977 (protein)
chain 1: QVQLVQSGPEVKKPGSPVKVSCKASGGTFNKFNYGIHWVRQAPGQGLEWMGRIIPLFGLTNYADKFEGRVTITADKSATTAYMEIYSLTSDDTAVYFCAGEALKPLDGYSTSWNDHWGQGTLVTVSS
chain 2: EIVMTQSPGTLSVSPGERATLSCRASQSIGSNLAWYQQKPGQAPRLLFSRATNRAAGVPAKFSGSGSGTEFTLTISSLQSEDFGVYYCQQFNNWPLTFGQGTRLEIK
B5: BD55-389 (protein)
chain 1: EVQLVESGGGLVQPGRSLRLSCAASGFTFDDYAMYWVRQAPGKGLEWVSGISWNSGSIHYADSVKGRFTISRDNAKNSLYLQMNSLRAEDTALYYCAKSQLGELLFGPDYWGQGTLVTVSS
chain 2: QSVLTQPPSASGTPGQRVTISCSGSTSNIETYAVNWYQQLPGTAPKLLIYSNNQRPSGLPDRFSGSKSGTSASLAISGLQSEDEATYYCAAWDDSLNGHWVFGGGTKLTVL
B6: BD55-311 (protein)
chain 1: QVQLQESGPGLVKPSQTLSLTCTVSGGSINIGGFYWTWIRQHPGKGLEWIGYISYSGSTSYNPSLRSRVTVSVDMSKNQFSLRLSSVTAADTAVYYCARGQEFWFDPWGQGTLVTVSS
chain 2: SYVVTQPPSVSVAPGKTARITCGGNNIGSKSVHWYQQKPGQAPVLVMYYDSDRPSGIPERFSGSNSGNTATLTISRVEAGDEADYYCQVWESSSDHPYVFGTGTKVTVL

Human monoclonal antibodies against the spike receptor-binding domain (heavy:light variable regions). IC50 against pseudoviruses bearing the spike of naturally observed variants; lower = stronger; >10 µg/ml means not reached at the top dose. No active / inactive call. The stated detection limit is 0.0005 µg/ml; values near or below 0.001 µg/ml lie at the floor of the assay.

For one assay, the target named is SARS-CoV-2 Omicron BA.1 spike pseudovirus. The experiment in a line: pseudovirus neutralization IC50; higher = weaker neutralization. The procedure: (§1)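 Single-round VSV luciferase pseudovirus mixed with antibody dilutions for 1 h and put on Huh-7 cells for about a day; IC50 from the dose curve.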
As for B1, the “pseudovirus neutralization IC50” value was over 10 µg/mL.

On to B2, for which the “pseudovirus neutralization IC50” value was over 10 µg/mL.

Turning to B3, the “pseudovirus neutralization IC50” value is 2.45 µg/mL.

Take B4: the “pseudovirus neutralization IC50” value was over 10 µg/mL.

In the case of B5, the “pseudovirus neutralization IC50” value was over 10 µg/mL.

Consider B6, for which the “pseudovirus neutralization IC50” value came out at 1.89 µg/mL.

In a further assay the target is SARS-CoV-2 Omicron BA.2 spike pseudovirus. The description is as above. The procedure:
as §1
On to B1, for which the “pseudovirus neutralization IC50” value is over 10 µg/mL.

In the case of B2, the “pseudovirus neutralization IC50” value is over 10 µg/mL.

In the case of B3, the “pseudovirus neutralization IC50” value came out at 1.65 µg/mL.

Consider B4, for which the “pseudovirus neutralization IC50” value turned out to be 1.17 µg/mL.

With B5, the “pseudovirus neutralization IC50” value is over 10 µg/mL.

Turning to B6, the “pseudovirus neutralization IC50” value was 1.28 µg/mL.

Another assay addresses SARS-CoV-2 Omicron BA.2.75 spike pseudovirus. The assay is described as above. The protocol: as §1
Regarding B1, the “pseudovirus neutralization IC50” value is over 10 µg/mL.

For B2, the “pseudovirus neutralization IC50” value is over 10 µg/mL.

In the case of B3, the “pseudovirus neutralization IC50” value turned out to be 3.84 µg/mL.

In the case of B4, the “pseudovirus neutralization IC50” value was over 10 µg/mL.

For B5, the “pseudovirus neutralization IC50” value was over 10 µg/mL.

As for B6, the “pseudovirus neutralization IC50” value turned out to be 1.12 µg/mL.

A further assay deals with SARS-CoV-2 Omicron BA.5 spike pseudovirus. The description is as above. The protocol:
as §1
In the case of B1, the “pseudovirus neutralization IC50” value was over 10 µg/mL.

B2: the “pseudovirus neutralization IC50” value is over 10 µg/mL.

Take B3: the “pseudovirus neutralization IC50” value turned out to be 3.13 µg/mL.

On to B4, for which the “pseudovirus neutralization IC50” value is over 10 µg/mL.

As to B5, the “pseudovirus neutralization IC50” value is over 10 µg/mL.

For the molecule B6, the “pseudovirus neutralization IC50” value is over 10 µg/mL.

For another assay, the target named is SARS-CoV-2 Omicron BQ.1.1 spike pseudovirus. The description is as above. The protocol: as §1
Consider B1, for which the “pseudovirus neutralization IC50” value is over 10 µg/mL.

In the case of B2, the “pseudovirus neutralization IC50” value is over 10 µg/mL.

For the molecule B3, the “pseudovirus neutralization IC50” value amounted to 1.39 µg/mL.

With B4, the “pseudovirus neutralization IC50” value is over 10 µg/mL.

As to B5, the “pseudovirus neutralization IC50” value is over 10 µg/mL.

For the molecule B6, the “pseudovirus neutralization IC50” value was over 10 µg/mL.

The next assay addresses SARS-CoV-2 Omicron XBB spike pseudovirus. The assay is described as above. The protocol: as §1
B1: the “pseudovirus neutralization IC50” value is over 10 µg/mL.

Consider B2, for which the “pseudovirus neutralization IC50” value is over 10 µg/mL.

Regarding B3, the “pseudovirus neutralization IC50” value was 2.14 µg/mL.

Turning to B4, the “pseudovirus neutralization IC50” value is over 10 µg/mL.

Consider B5, for which the “pseudovirus neutralization IC50” value is over 10 µg/mL.

B6: the “pseudovirus neutralization IC50” value is over 10 µg/mL.

A further assay has as its target SARS-CoV-2 early D614G spike pseudovirus. The description is as above. The protocol: as §1
In the case of B1, the “pseudovirus neutralization IC50” value is 0.003 µg/mL.

Turning to B2, the “pseudovirus neutralization IC50” value worked out at 0.004 µg/mL.

In the case of B3, the “pseudovirus neutralization IC50” value turned out to be 0.775 µg/mL.

With B4, the “pseudovirus neutralization IC50” value is 1.53 µg/mL.

In the case of B5, the “pseudovirus neutralization IC50” value was over 10 µg/mL.

Consider B6, for which the “pseudovirus neutralization IC50” value came out at 0.469 µg/mL.
